Results taken from patent publication US12590094B2, “Compounds for the treatment of neurodegenerative and metabolic disorders” (UNIVERSITY OF FLORIDA RESEARCH FOUNDATION, INCORPORATED, priority 2019, dated 2026).

Tested on: PK1 neuroblastoma cells treated with TPrP
Details: @ 6.4 μM

**Q.** How did the neuroprotection turn out when `COc1cccc(Nc2nnc(Cc3ccncc3)c3ccccc23)c1` was run?
**A.** Its neuroprotection is 44%.
